Laboratory results published in publication PMC7681013, “Structure and kinetics of indole-3-glycerol phosphate synthase from Pseudomonas aeruginosa: Decarboxylation is not essential for indole formation” (The Journal of Biological Chemistry, 2020).

Tested on: O=C(CNc1ccccc1)[C@H](O)[C@H](O)COP(=O)(O)O
Assay: purified protein
Settings: 50 mM Tris-HCl, 4 mM MgCl2, 0.5 mM TCEP, pH 7.0, 25 °C, substrate made enzymatically in situ from aniline and PRPP, 2.5 μM enzyme

Substance: PaIGPS (Pseudomonas aeruginosa PAO1; F201L)
- Km: 130 ± 60 µM
- kcat: 0.00189 ± 0.00022 s⁻¹
